Measured values from several laboratories, pooled; numbers as filed in NIAID ChemDB.

Shared fields: growth or infection tests; agent: Aspergillus fumigatus

a–b is a range or a potency band. Zones are inhibition diameters on agar. A number after MIC or MFC names an inhibition level or a share of isolates. Lines come from different laboratories, so protocols vary. Inhibition is in % at the dose shown (toxicity tests: loss of growth or viability). Blank or dashed fields: not listed here.

compound	read-out	tested at	strain	method	value
CC(=O)OC[C@H]1O[C@@H](Sc2ncc(-c3cccnc3)n2N)[C@H](OC(C)=O)[C@@H](OC(C)=O)[C@@H]1OC(C)=O	zone	5 mg/mL	-	agar diffusion / agar	1–5 mm
C[C@H]1[C@H](O)[C@@H](C)/C=C/C=C/C=C/C=C/C=C/C=C/C=C/[C@H](O[C@@H]2O[C@H](C)[C@@H](O)[C@H](N)[C@@H]2O)C[C@@H]2O[C@](O)(C[C@@H](O)C[C@@H](O)CC[C@H](O)[C@@H](O)C[C@@H](O)CC(=O)O[C@H]1C)C[C@H](O)[C@H]2C(=O)O	MIC	-	NFI 0239	-	1 µg/mL
CC(=O)OC[C@H]1O[C@@H](Sc2nnc(-c3cccnc3)n2/N=C/c2ccc(C)cc2)[C@H](OC(C)=O)[C@@H](OC(C)=O)[C@@H]1OC(C)=O	zone	1 mg/mL	-	agar diffusion / agar	1–5 mm
C[C@@H]1[C@H](O)[C@@H](C)/C=C/C=C/CC/C=C/C=C/C=C/C=C/C(O[C@H]2O[C@H](C)[C@@H](O)[C@H](N)[C@@H]2O)CC2O[C@](O)(CC(O)C(O)CCC(O)CC(O)CC(O)CC(=O)O[C@H]1C)CC(O)C2C(=O)O	zone	50 µg/disc	-	agar diffusion	21 mm
COc1ccc(-n2c(-c3ccc(Cl)cc3)nc3ccccc3c2=O)cc1OC	zone	10 mg/mL	RCMB 002003	agar diffusion / agar	9.8 mm
OC[C@H]1O[C@@H](n2nc(-c3cccnc3)n(/N=C/c3ccccc3)c2=S)[C@H](O)[C@@H](O)[C@@H]1O	zone	2.5 mg/mL	-	agar diffusion / agar	1–5 mm
OC(Cn1cncn1)(Cn1cncn1)c1ccc(F)cc1F	MFC	-	NFI 0159	-	>128 µg/mL
COc1ccc(-n2cnc3ccccc3c2=O)cc1OC	zone	10 mg/mL	RCMB 002003	agar diffusion / agar	9.5 mm
C[C@H]1[C@H](O)[C@@H](C)/C=C/C=C/C=C/C=C/C=C/C=C/C=C/[C@H](O[C@@H]2O[C@H](C)[C@@H](O)[C@H](N)[C@@H]2O)C[C@@H]2O[C@](O)(C[C@@H](O)C[C@@H](O)CC[C@H](O)[C@@H](O)C[C@@H](O)CC(=O)O[C@H]1C)C[C@H](O)[C@H]2C(=O)O	inhibition	16 µg/mL	AB16.4	agar	60%
CCc1ccc(O)cc1	MIC50	-	-	agar	113 µg/mL
COc1cc2occc2c2oc(-c3ccccc3)cc(=O)c12	zone	50 µg/disc	-	agar diffusion	16.5 mm
CC(=O)OC[C@H]1O[C@@H](n2[nH]c(-c3ccccc3)[n+](/N=C/c3ccc(C)cc3)c2=S)[C@H](OC(C)=O)[C@@H](OC(C)=O)[C@@H]1OC(C)=O	zone	5 mg/mL	-	agar diffusion / agar	1–5 mm
O=c1cc(-c2ccccc2)oc2c1ccc1occc12	zone	50 µg/disc	-	agar diffusion	8.5 mm
COc1ccc(/C=N/n2c(S[C@@H]3O[C@H](COC(C)=O)[C@@H](OC(C)=O)[C@H](OC(C)=O)[C@H]3OC(C)=O)nnc2-c2cccnc2)cc1	zone	1 mg/mL	-	agar diffusion / agar	1–5 mm
O=C(O)Cc1ccc(-n2cnc3ccccc3c2=O)cc1	zone	10 mg/mL	RCMB 002003	agar diffusion / agar	12.1 mm
CCc1ccc(O)c(OC)c1	MIC100	-	-	agar	628 µg/mL
OC[C@H]1O[C@@H](n2[nH]c(-c3cccnc3)nc2=S)[C@H](O)[C@@H](O)[C@@H]1O	zone	2.5 mg/mL	-	agar diffusion / agar	0 mm
CN(C/C=C/C#CC(C)(C)C)Cc1cccc2ccccc12	MIC50	-	60 isolates	-	>16 µg/mL
COc1cc(-n2cnc3ccccc3c2=O)cc(OC)c1OC	zone	10 mg/mL	RCMB 002003	agar diffusion / agar	11.3 mm
COc1cccc(OC)c1O	MIC100	-	-	agar	>1000 µg/mL
CO[C@H]1O[C@@H](Oc2cc(O)c3c(=O)c(-c4ccc(O)cc4)coc3c2)[C@H](O)[C@@H](O)[C@@H]1O	inhibition	1000 µg/mL	-	-	95%
CC(C)=CCC/C(C)=C/CO	MFC	-	MTCC 2550	broth dilution	288 µg/mL
COc1ccccc1O	MIC50	-	-	agar	200 µg/mL

Repeating the final 2 entries:

compound	read-out	tested at	strain	method	value
CC(C)=CCC/C(C)=C/CO	MFC	-	MTCC 2550	broth dilution	288 µg/mL
COc1ccccc1O	MIC50	-	-	agar	200 µg/mL